Assay results reported in PMC9517163.

Target: SARS-CoV-2 receptor-binding domain (RBD), prototype (SARS-CoV-2) (UniProt P0DTC2)
Experiment: SPR
Settings: Fc fusion

hippopotamus ACE2, mFc-tagged
Kd: 66.7 nM
